Data taken from US20150104459A1, “Compositions and Methods for the Therapy and Diagnosis of Influenza” (published 2015).
Substitutions are numbered along the chain they refer to.

Experiments:
[1] = molecular target: recombinant homotrimeric HA, A/northern shoveler/California/HKWF115/07 (Influenza A virus A/northern …); test: trimeric HA microarray; transfection supernatant set 2
[2] = molecular target: recombinant homotrimeric HA, A/Hong Kong/1073/99 H9N2 (Influenza A virus A/Hong Kong/1073/99 …); test: as above
[3] = molecular target: T1, recombinant homotrimeric HA, A/Solomon Islands/3/06 H1N1 (Influenza A virus A/Solomon …); test: as above
[4] = molecular target: T2, recombinant homotrimeric HA, A/California/4/09 H1N1 (Influenza A virus A/California/4/09 …); test: as above
[5] = molecular target: recombinant homotrimeric HA, A/chicken/Vietnam/NCVD-016/08 H5N1 (Influenza A virus …); test: as above
[6] = molecular target: T3, recombinant homotrimeric HA, A/Egypt/3300-NAMRU3/08 H5N1 (Influenza A virus …); test: as above
[7] = molecular target: recombinant homotrimeric HA, A/duck/Yangzhou/02/05 H8N4 (Influenza A virus …); test: as above
[8] = molecular target: recombinant homotrimeric HA, A/Wisconsin/67/05 H3N2 (Influenza A virus A/Wisconsin/67/05 …)
[9] = molecular target: recombinant homotrimeric HA, A/Netherlands/219/03 H7N7 (Influenza A virus A/Netherlands/219/03 …)
[10] = molecular target: T4, recombinant homotrimeric HA, A/swine/Ontario/01911-2/99 H4N6 (Influenza A virus …); test: trimeric HA microarray; transfection supernatant set 2
[11] = molecular target: recombinant homotrimeric HA, A/Indonesia/5/05 H5N1 (Influenza A virus A/Indonesia/5/05 …)
[12] = molecular target: recombinant homotrimeric HA, A/Vietnam/1203/04 H5N1 (Influenza A virus A/Vietnam/1203/04 …)
[13] = molecular target: T1, recombinant homotrimeric HA, A/Solomon …; test: trimeric HA microarray; transfection supernatant set 5
[14] = molecular target: T2, recombinant homotrimeric HA, …; test: as above
[15] = molecular target: T3, recombinant homotrimeric HA, …; test: as above
[16] = molecular target: recombinant homotrimeric HA, A/Japan/305/57 H2N2 (Influenza A virus A/Japan/305/57 (H2N2))
[17] = molecular target: T1, recombinant homotrimeric HA, A/Solomon …; test: trimeric HA microarray; transfection supernatant set 4
[18] = molecular target: T2, recombinant homotrimeric HA, …; test: as above
[19] = molecular target: T4, recombinant homotrimeric HA, …; test: trimeric HA microarray; transfection supernatant set 5

B1: TCN-522 (3212_I12) (antibody, V domains shown)
VH: QVQLQQWGAGLLKPSETLSLTCTVSGGSLTDYSWNWIRQPPGKGLEWIGDTLHNGYTNYNPSLRGRVSISIDTSKNQVSLRLTSVTAADTALYYCARGSGGYGGFDYFGKLRTWDFWGQGTLVTVSS
VL: DIQLTQSPSSLSASVGDRVTITCRASQGIRNDLGWYQQKPGNAPKRLIFGASSLQSGVPSRFSGSGSGTEFTLTISSLQPEDFATYYCLQHNSYPYTFGQGTKLEIK
- Trimeric HA Binding: RLU [1]: 54400 RLU
- Trimeric HA Binding: RLU [2]: 11800 RLU
- Trimeric HA Binding: RLU [3]: 17300 RLU
- Trimeric HA Binding: RLU [4]: 37500 RLU
- Trimeric HA Binding: RLU [5]: 49300 RLU
- Trimeric HA Binding: RLU [6]: 55400 RLU
- Trimeric HA Binding: RLU [7]: 1650 RLU

B2: TCN-526 (5084_C17) (antibody, V domains shown)
VH: EVLMVESGGGLVQPGGSVRLSCVASGFSFSSHWMTWVRQAPGKGLEWVANIEDDGGDKYYVDSVKGRFIISRDNAKNSVYLQMNSLRAEDTAVYFCARGSGSSDRSDYDPHYYYYLDVWGKGATVTVSS
VL: DIQLTQSPSSLSASVGDRVTITCRASQSISRYLNWYQQKPGKAPKLLLFAASTLLDGVPSRFSGSGSGTDFTLTISSLQPEDFATYYCQRNHSPSWTFGQGTRVEIK
- Trimeric HA Binding: RLU [8]: 27800 RLU
- Trimeric HA Binding: RLU [7]: 4300 RLU

B3: TCN-563 (5237_B21) (antibody, V domains shown)
VH: QVQLAQSGAEVKRPGSSVKVSCTASGGIFRKNAISWVRQAPGQGLEWMGGIIAVFNTANYAQKFQGRVKITADESGNTAYMELSSLRSDDTAVYYCASHPKYFYGSGSYPDFWGQGTLVTVSS
VL: QSALTQPRSVSGSPGQSVTISCTGSSSDVGASNSVSWYQQHPGKAPKLVIYDVTERPSGVPHRFSGSKSGNTASLTVSGLQPEDEADYFCCAYGGKYLVVFGGGTKVTVL
- Trimeric HA Binding: RLU [8]: 23700 RLU
- Trimeric HA Binding: RLU [9]: 5420 RLU
- Trimeric HA Binding: RLU [1]: 21900 RLU
- Trimeric HA Binding: RLU [2]: 49200 RLU
- Trimeric HA Binding: RLU [3]: 26500 RLU
- Trimeric HA Binding: RLU [4]: 21200 RLU
- Trimeric HA Binding: RLU [10]: 2250 RLU
- Trimeric HA Binding: RLU [5]: 36300 RLU
- Trimeric HA Binding: RLU [6]: 23900 RLU
- Trimeric HA Binding: RLU [7]: 6280 RLU

B4: TCN-555 (5246_L16) (antibody, V domains shown)
VH: B3 VH with A5V, G66N, R87T
VL: B3 VL with V18I, S25G, V29I, Y51F, E83D
- Trimeric HA Binding: RLU [11]: 33900 RLU
- Trimeric HA Binding: RLU [12]: 19300 RLU
- Trimeric HA Binding: RLU [8]: 14700 RLU
- Trimeric HA Binding: RLU [13]: 44600 RLU
- Trimeric HA Binding: RLU [14]: 20200 RLU
- Trimeric HA Binding: RLU [15]: 20000 RLU

B5: TCN-529 (5297_H01) (antibody, V domains shown)
VH: QITLRESGPTLVKPTQTLTLTCTFSGFSLSTNGVNVGWIRQPPGKALEWLALIYWDDDKRYSPSLKRRLTITKDTSKNQVVLTLTNMDPVDTATYYCAHRPDFYGDFEYWGPGTLVTVSS
VL: QSALTQPASVSGSPGQSITISCTGSSSDIGGYNYVSWYQQHPGKAPKLMIYDVNNRPSGVSNRFSGSKSGNTASLTISGLQTDDEADYYCGSYTGSPHYVFGTGTKVTVL
- Trimeric HA Binding: RLU [16]: 45 RLU
- Trimeric HA Binding: RLU [8]: 2940 RLU

B6: TCN-534 (5249_B02) (antibody, V domains shown)
VH: QVQLVQSGAEVKKPGSSVKVSCRESGGTFNGYTITWVRQAPGQGLEWMGGIIPMMGTVNYAQKLQGRVTITTDYFTKTAYMDLNNLRSEDTAMYYCVKIRYTGQQLLWGQGTLVTVSS
VL: DIQMTQSPSTLSASIGDRVTITCRASQSIASWLAWYQQKPGKAPKLLIYEAVNLESGVPSRFSGSGSGTDFTLTISSLQPDDFATYFCQHYGTISQTFGGGTKVEIK
- Trimeric HA Binding: RLU [17]: 60 RLU
- Trimeric HA Binding: RLU [18]: 27000 RLU

B7: TCN-537 (3194_D21) (antibody, V domains shown)
VH: QVQLQQWGSGLLKPSETLSLTCAVYGGSFRDDYWTWIRQPPGKGLEWIGEINHSGRTNYNPSLKSRVTISVDTSLKQFSLKVISVTAADTAVYYCARGTSHVSRYFDWLPPTNWFDPWGQGTQVTVSS
VL: DIVLTQSPGTLSLSPGERATLSCRASQSVSSSYLAWYQQKPGQAPRLVMYGAATRATGIPDRFSGSGSGPDFTLTISRLEPEDFAMYYCQQYGNSPITFGQGTRLEIK
- Trimeric HA Binding: RLU [8]: 1940 RLU
- Trimeric HA Binding: RLU [14]: 33800 RLU
- Trimeric HA Binding: RLU [19]: 3280 RLU
- Trimeric HA Binding: RLU [15]: 33500 RLU

B8: TCN-551 (5243_D01) (antibody, V domains shown)
VH: EVQLVQSGSEVKKPGESLKISCKGSGYSFSNYWIGWVRHMPGKGLEWMGIIYPGDSDTRYSPSFQGQVTMSADKSSSTVYLQWSSLKASDTAIYYCARRGGHSFGYGSGGDTHSEFDSWGQGTLVTVSS
VL: QSVLTQSPSVSAAPGQKVTISCSGSDSNIGDYFVCWYQHLPGKPPQLLIYENNKRPSGIPDRFSGSKSGTSATLGITGIQTGDEADYYCATWDGSLSAWVFGGGTKLTVL
- Trimeric HA Binding: RLU [12]: 41900 RLU
- Trimeric HA Binding: RLU [13]: 43500 RLU
- Trimeric HA Binding: RLU [14]: 46100 RLU

B9: TCN-552 (5249_I23) (antibody, V domains shown)
VH: QVQVVQSGAEVKKPGSSVRVSCQASGGTFMNYAIIWVRRAPGQGLEWMGGIIPVFPTPNYAQMFQGRVTISTDESRSTSFLELTNLRYEDTAVYYCARRIYHGGNSGFDFWGQGTLVTVSS
VL: EIVLTQSPATLSLSPGERATLSCRASQSVGNYLAWYQQKPGQAPRLLIYDSSNRAPGIPARFSGSGSGTDFTLTISSLAPEDFAVYYCQQRSKWPPMYSFGHGTKLEIK
- Trimeric HA Binding: RLU [11]: 43400 RLU
- Trimeric HA Binding: RLU [12]: 18500 RLU
- Trimeric HA Binding: RLU [8]: 18500 RLU
- Trimeric HA Binding: RLU [13]: 48600 RLU
- Trimeric HA Binding: RLU [14]: 23500 RLU
- Trimeric HA Binding: RLU [19]: 9080 RLU

B10: TCN-553 (5261_C18) (antibody, V domains shown)
VH: QVQVVQSGTEVKKPGSSVKVSCQTSGGRFMSYAITWVRQAPGQGLEWMGGIVPVFGTANYAQKFQGRVTITTDDSTRTAYMELSSLRSEDTAVYYCGFRYGSGYGFDSWGQGTLVTVSS
VL: EIVLTQSPGTLSLSPGERATLSCRASQSVSSSYLAWYQKKPGQAPRLLIYGASTRATGIPDRFTGSGSGTDFTLSISRLEPEDFAVYYCQHFGTSVFTFGGGTKVEIK
- Trimeric HA Binding: RLU [11]: 31200 RLU
- Trimeric HA Binding: RLU [12]: 19200 RLU
- Trimeric HA Binding: RLU [8]: 25200 RLU
- Trimeric HA Binding: RLU [13]: 49600 RLU
- Trimeric HA Binding: RLU [14]: 23300 RLU
- Trimeric HA Binding: RLU [19]: 12200 RLU

B11: TCN-557 (5081_A04) (antibody, V domains shown)
VH: QVQLVQSGAEVKKPGASVKVSCKASGHTFTGYYIHWVRQAPGQGLEWMGWINPDSGATSSAQNFQGRVTMTGDTSSSTAYMELSRLSFDDTAVYYCARVLFTSPFDFWGEGTLVTVSS
VL: QAVVTQEPSLAVSPGGTVTLTCGSSTGAVTRGHYPYWFQQKPGQAPRALIYDSAGNRHSWTPARFSGSLLGGKAALTLSGAQPEDEAEYYCLLSYSGVWVFGGGTKLTVL
- Trimeric HA Binding: RLU [11]: 22200 RLU
- Trimeric HA Binding: RLU [12]: 21300 RLU
- Trimeric HA Binding: RLU [8]: 46100 RLU
- Trimeric HA Binding: RLU [14]: 44400 RLU
- Trimeric HA Binding: RLU [19]: 41500 RLU

B12: TCN-558 (5248_H10b) (antibody, V domains shown)
VH: QVQLVQSGSEVKKPGTSVKVSCTASGSVFTNYGISWVRQAPGQGLEWMGGIIPLFGAAKYAQKFQGRVTITADESTKTVYMELSRLTSKDTAIYFCAKAPRVYEYYFDQWGQGTPVTVSS
VL: EIVMTQFPATLSVSPGERVTLSCRASQSVSNNLAWYQQKPGQPPRLLIYDASTRATGVPAKFSGTGSGTEFTLSISSLQSEDFAVYYCQQYHNWPPSYSFGLGTKLEIK
- Trimeric HA Binding: RLU [8]: 26600 RLU
- Trimeric HA Binding: RLU [13]: 36100 RLU
- Trimeric HA Binding: RLU [14]: 20200 RLU
- Trimeric HA Binding: RLU [19]: 10000 RLU
